# B1: P24534 1xPhospho [S106(100)] (protein, UniProt P24534 2-225, looked up)
# Elongation factor 1-beta: GFGDLKSPAGLQVLNDYLADKSYIEGYVPSQADVAVFEAVSSPPPADLCHALRWYNHIKSYEKEKASLPGVKKALGKYGPADVEDTTGSGATDSKDDDDIDLFGSDDEEESEEAKRLREERLAQYESKKAKKPALVAKSSILLDVKPWDDETDMAKLEECVRSIQADGLVWGSSKLVPVGYGIKKLQIQCVVEDDKVGTDMLEEQITAFEDYVQSMDVAAFNKI
# modifications: phospho S106
# B2: Q99956 1xPhospho [S328(100)] (protein, UniProt Q99956 1-384, looked up)
# Dual specificity protein …: MEGLGRSCLWLRRELSPPRPRLLLLDCRSRELYESARIGGALSVALPALLLRRLRRGSLSVRALLPGPPLQPPPPAPVLLYDQGGGRRRRGEAEAEAEEWEAESVLGTLLQKLREEGYLAYYLQGGFSRFQAECPHLCETSLAGRAGSSMAPVPGPVPVVGLGSLCLGSDCSDAESEADRDSMSCGLDSEGATPPPVGLRASFPVQILPNLYLGSARDSANLESLAKLGIRYILNVTPNLPNFFEKNGDFHYKQIPISDHWSQNLSRFFPEAIEFIDEALSQNCGVLVHCLAGVSRSVTVTVAYLMQKLHLSLNDAYDLVKRKKSNISPNFNFMGQLLDFERSLRLEERHSQEQGSGGQASAASNPPSFFTTPTSDGAFELAPT
# modifications: phosphorylated S328
# B3: Q99956 1xPhospho [S328(99.7)] (protein, UniProt Q99956 1-384, looked up)
# Dual specificity protein …: B2 Dual specificity protein …
# modifications: phosphorylated S328
# B4: Q56P03 2xPhospho [S109(100); S111(100)] (protein, UniProt Q56P03 1-285, looked up)
# E2F-associated phosphoprotein: MNRLPDDYDPYAVEEPSDEEPALSSSEDEVDVLLHGTPDQKRKLIRECLTGESESSSEDEFEKEMEAELNSTMKTMEDKLSSLGTGSSSGNGKVATAPTRYYDDIYFDSDSEDEDRAVQVTKKKKKKQHKIPTNDELLYDPEKDNRDQAWVDAQRRGYHGLGPQRSRQQQPVPNSDAVLNCPACMTTLCLDCQRHESYKTQYRAMFVMNCSINKEEVLRYKASENRKKRRVHKKMRSNREDAAEKAETDVEEIYHPVMCTECSTEVAVYDKDEVFHFFNVLASHS
# modifications: phosphorylated S109, S111
# B5: Q56P03 2xPhospho [S109(99.4); S111(100)] (protein, UniProt Q56P03 1-285, looked up)
# E2F-associated phosphoprotein: B4 E2F-associated phosphoprotein
# modifications: phosphorylated S109, S111
# Test system: HepG2-NTCP cells
# Assay: TMT-based phosphoproteome profiling of HBV-infected vs mock HepG2-NTCP (HBV/mock ratio)
# Parameters: species or system human
# Conditions: phosphosite abundance ratio of host protein, HBV-infected vs mock HepG2-NTCP, 7dpi, sheet Up-regulated
row,Molecule,HBV/mock
1,B1,1.347
2,B2,1.364
3,B3,1.337
4,B4,1.395
5,B5,1.319
